A mixed list of measured activities; the numbers were collected in NIAID ChemDB.

Common to all: growth or infection tests; organism: HIV-1

Lines come from different laboratories, so protocols vary. ECn is the concentration giving n% inhibition of infection, replication or growth. Blank or dashed fields: not listed here.

SMILES	read by	strain or isolate	cells	read-out	changes	result
C[C@H](Cn1cnc2c(N)ncnc21)OCP(=O)(O)O		NL4-3	Jurkat cells	EC50		11.6 µM
CCc1cc(CCc2nc3c(F)ccc(F)c3o2)c(=O)[nH]c1C	p24	IIIB	MT-4	EC50		<0.05 µM
CC1CNC(=O)c2ccccc2SSc2ccccc2C(=O)N1		IIIB	MT-4	EC50		~1.8 µg/mL
Nc1ncnc2c1ncn2CCOCP(=O)(O)O	antigen	IIIB	H9	EC50		0.4 µM
CO/N=C1\C(=O)N(CCOCCN2C(=O)/C(=N/OC)c3ccccc32)c2ccccc21	MTT	IIIB	MT-4	EC50		>11.97 µM
Nc1ncnc2c1ncn2CCOCP(=O)(O)O	cytopathic effect / trypan blue	IIIB	MT-4	EC50		5.9 µM
Cc1cc(S(N)(=O)=O)ccc1NC(=O)COc1ccc(Cl)cc1C(=O)c1cccc(C#N)c1	β-galactosidase	HXB2	HeLa + HeLa-MAGI	EC50		0.0007 µM
O=C1/C(=C/c2ccc(O)c(O)c2)Cc2ccccc21	cytopathic effect / MTT		MT-4	EC50		>5.5 µM
CC(C)=CCN1Cc2cc(Cl)cc3[nH]c(=S)n(c23)C[C@@H]1C			MT-4	EC95	RT-M41L T215Y Y181C	>3 µM
Cc1cc(C#N)cc(C(=O)c2cc(Cl)ccc2OCC(=O)Nc2ccc(S(N)(=O)=O)nc2C)c1	β-galactosidase	HXB2	HeLa + HeLa-MAGI	EC50		0.002 µM
Cc1cn(C[C@@H](CO)OCP(=O)(O)O)c(=O)[nH]c1=O	cytopathic effect / trypan blue	IIIB	MT-4	EC50		>250 µM
CO[C@@H]1[C@@H](OC(=O)c2ccc(C)[nH]2)[C@@H](O)C(Oc2ccc3c(O)c(NC(=O)c4c[nH]c(C(=O)Nc5c(O)c6ccc(OC7OC(C)(C)[C@H](OC)[C@@H](OC(=O)c8ccc(C)[nH]8)[C@H]7O)c(C)c6oc5=O)c4C)c(=O)oc3c2C)OC1(C)C	antigen		HuT-78 + HUT 78	EC50		0.31 µg/mL
CC(C)(C)OC(=O)N[C@@H](Cc1ccccc1)[C@H](O)[C@H](O)[C@H](Cc1ccccc1)NC(=O)OC(C)(C)C	p24	NL4-3	MT-4	EC50		7 µM
Cc1nnc(C(=O)NC(C)(C)c2nc(C(=O)NCc3ccc(F)cc3)c(O)c(=O)n2C)o1		NL4-3	MDM	EC50		0.022 µM
Nc1nc(N)c2ncn(CC(CO)OCP(=O)(O)O)c2n1	cytopathic effect / trypan blue	IIIB	MT-4	EC50		>40 µM
C[C@@H]1O[C@H]2OCCC[C@H]2[C@H]1OC(=O)N[C@@H](Cc1ccccc1)[C@H](O)CN1C[C@H]2CCCC[C@H]2C[C@H]1C(=O)NC(C)(C)C	cytopathic effect / MTT	LAI	MT-2	EC50		0.039 µM
CCCCCCCCCCCCCCOCCOP(=O)(O)OC[C@H]1O[C@@H](n2cc(C)c(=O)[nH]c2=O)C[C@@H]1N=[N+]=[N-]	syncytia	IIIB	CEM + CEM/O	EC50		0.119 µM
COc1ccc(/C=C/C(=O)/C=C/c2ccc(OC)c(OC)c2)cc1OC	cytopathic effect / MTT		MT-4	EC50		>4.1 µM
Cc1cc(Cl)cc(C(=O)c2cc(Cl)ccc2OCC(=O)Nc2ccc(S(N)(=O)=O)cc2C)c1	β-galactosidase	HXB2	HeLa + HeLa-MAGI	EC50		0.0012 µM
O=C(/C=C/c1ccc(O)c(O)c1)/C=C/c1ccc(O)c(O)c1	cytopathic effect / MTT		MT-4	EC50		>38 µM
CCc1cc(CCc2nc3c(F)ccc(F)c3o2)c(=S)[nH]c1C	p24	IIIB	MT-4	EC50		<0.15 µM
Cc1cn([C@H]2C[C@H](N=[N+]=[N-])[C@@H](CO)O2)c(=O)[nH]c1=O	p24	IIIB	MT-4	EC50		0.007 µM
CCCCCCCCCCCCOCCOP(=O)(O)OC[C@H]1O[C@@H](n2cc(C)c(=O)[nH]c2=O)C[C@@H]1N=[N+]=[N-]	syncytia	IIIB	CEM + CEM/O	EC50		0.115 µM
CC(C)[C@H](NC(=O)N(C)Cc1ccccn1)C(=O)N[C@@H](Cc1ccccc1)[C@H](O)[C@@H](O)[C@H](Cc1ccccc1)NC(=O)[C@@H](NC(=O)N(C)Cc1ccccn1)C(C)C	p24	NL4-3	MT-4	EC50		0.1 µM
Cc1ccnc2c1NC(=O)c1cccnc1N2C1CC1		NL4-3	Jurkat cells	EC50		0.09 µM
Nc1nc(N)c2ncn(C[C@@H](CO)OCP(=O)(O)O)c2n1	cytopathic effect / trypan blue	IIIB	MT-4	EC50		>125 µM
Cc1cc(S(N)(=O)=O)ccc1NC(=O)COc1ccc(Cl)cc1C(=O)c1cc(C#N)cc(C(F)(F)F)c1	β-galactosidase	HXB2	HeLa + HeLa-MAGI	EC50		0.001 µM
O=Nc1c(O)n(CCOCCn2c(O)c(N=O)c3ccccc32)c2ccccc12	MTT	IIIB	MT-4	EC50		>238 µM
CCc1cc(CCc2nc3cccc(F)c3o2)c(=S)[nH]c1C	p24	IIIB	MT-4	EC50		<0.2 µM
CC(C)CN(C[C@@H](O)[C@H](Cc1ccccc1)NC(=O)[C@@H](NC(=O)CNCc1cccc(F)c1)C(C)(C)C)S(=O)(=O)c1cccc(N)c1		RF	MT-2	EC50		<0.0039 µM
O=S1(=O)NC(Cc2ccc3ccccc3c2)=CC(=NCc2ccccc2)N1	MTT	IIIB	MT-4	EC50		>161 µM
Cc1cn([C@H]2C[C@H](N=[N+]=[N-])[C@@H](CO)O2)c(=O)[nH]c1=O	cytopathic effect / XTT		CEM	EC50		0.007 µM
CCCc1cc(=O)oc2c3c(c4c(c12)OC(C)(C)CC4)O[C@H](C)[C@@H](C)[C@@H]3O	p24	RF	CEM + CEM-SS	EC50		0.12 µM
NC(=O)N=Nc1c(O)n(CCOCCn2c(O)c(N=NC(N)=O)c3ccccc32)c2ccccc12	MTT	IIIB	MT-4	EC50		>121 µM
Cc1cc(C#N)cc(C(=O)c2cc(Cl)ccc2OCC(=O)Nc2cnc(S(N)(=O)=O)cc2C)c1	β-galactosidase	HXB2	HeLa + HeLa-MAGI	EC50		0.001 µM
CCCCCCCCCCCCCCCCOP(=O)(O)OC[C@H]1O[C@@H](n2cc(C)c(=O)[nH]c2=O)C[C@@H]1N=[N+]=[N-]	syncytia	IIIB	CEM + CEM/O	EC50		0.17 µM
O=c1oc(C23CC4CC(CC(C4)C2)C3)nc2ccc(Cl)cc12	cytopathic effect / XTT		CEM	EC50		69.2 µM
Nc1nc(N)c2ncn(CCOCP(=O)(O)O)c2n1	cytopathic effect / trypan blue	IIIB	MT-4	EC50		1 µM
Cc1cc(N2CCS(=O)CC2)ccc1NC(=O)COc1ccc(Cl)cc1C(=O)c1ccc(C#N)cc1	β-galactosidase	HXB2	HeLa + HeLa-MAGI	EC50		0.026 µM
O=C(/C=C/c1ccc(O)cc1)c1cccc(C(=O)/C=C/c2ccc(O)cc2)c1	cytopathic effect / MTT		MT-4	EC50		>35 µM
Nc1ccn(CCOCP(=O)(O)O)c(=O)n1	cytopathic effect / trypan blue	IIIB	MT-4	EC50		>125 µM
CCc1cc(CCc2nc3c(Cl)ccc(Cl)c3o2)c(=O)[nH]c1C	p24	IIIB	MT-4	EC50		<0.05 µM
O=S1(=O)N=C(Nc2ccc(Cl)cc2)C=C(Cc2ccccc2)N1	MTT	IIIB	MT-4	EC50		>179 µM
Cc1cn([C@H]2C[C@H](N=[N+]=[N-])[C@@H](CO)O2)c(=O)[nH]c1=O	p24 / ELISA	NL4-3	MT-4	EC50		0.0006 µg/mL
O=C(/C=C(O)/C=C/c1ccc(O)c(O)c1)/C=C/c1ccc(O)c(O)c1	cytopathic effect / MTT		MT-4	EC50		>17 µM
Cc1ccc2nc(C34CC5CC(CC(C5)C3)C4)oc(=O)c2c1	cytopathic effect / XTT		CEM	EC50		>80 µM
O=S1(=O)N=C(Nc2ccccc2)C=C(Cc2cccc3ccccc23)N1	MTT	IIIB	MT-4	EC50		>158 µM
O=C1C(=O)N(CCOCCN2C(=O)C(=O)c3cc(Cl)ccc32)c2ccc(Cl)cc21	MTT	IIIB	MT-4	EC50		>184 µM
Nc1nc(N)c2ncn(CCOCP(=O)(O)O)c2n1	cytopathic effect / trypan blue	IIIB	MT-4	EC50		1.4 µM
CO[C@@H]1[C@@H](OC(N)=O)[C@@H](O)[C@H](Oc2ccc3c(O)c(NC(=O)c4ccc(O)c(CC=C(C)C)c4)c(=O)oc3c2C)OC1(C)C	cytopathic effect / MTT		MT-4	EC50		>109 µg/mL
C[C@@H]1O[C@@H]2OCCC[C@@H]2[C@@H]1OC(=O)N[C@@H](Cc1ccccc1)[C@H](O)CN1C[C@H]2CCCC[C@H]2C[C@H]1C(=O)NC(C)(C)C	p24	PR-L63P ERS104pre	PBMC	EC50		0.024 µM
Cc1cc(N2CCS(=O)CC2)ccc1NC(=O)COc1ccc(Cl)cc1C(=O)c1ccccc1	β-galactosidase	HXB2	HeLa + HeLa-MAGI	EC50		0.017 µM
COc1c(C)c2c(c(O)c1C/C=C(\C)CCC(=O)O)C(=O)OC2	p24		PBMC	EC50	RT-K65R	0.17 µM
NNC(=O)c1cc(Br)ccc1NC(=O)C12CC3CC(CC(C3)C1)C2	cytopathic effect / XTT		CEM	EC50		>15.8 µM
O=c1ccn(C[C@@H](CO)OCP(=O)(O)O)c(=O)[nH]1	cytopathic effect / trypan blue	IIIB	MT-4	EC50		>250 µM
Nc1nc(N)c2ncn(CC(CF)OCP(=O)(O)O)c2n1	cytopathic effect / trypan blue	IIIB	MT-4	EC50		10 µM
CCc1cc(CCc2nc3c(C)ccc(C)c3o2)c(=O)[nH]c1C	p24	IIIB	MT-4	EC50		<0.3 µM
COc1ccc(CCN=C2C=C(Cc3ccccc3)NS(=O)(=O)N2)cc1	MTT	IIIB	MT-4	EC50		>209 µM
CC(C)CN(C[C@@H](O)[C@H](Cc1ccc(F)cc1)NC(=O)O[C@H]1CCO[C@H]2OCC[C@H]21)S(=O)(=O)c1ccc2nc(NC(C)C)sc2c1	p24 / luminescence	92UG029	PBMC	EC50		0.0032 µM
COc1cc2nc(C34CC5CC(CC(C5)C3)C4)oc(=O)c2cc1OC	cytopathic effect / XTT		CEM	EC50		>65.8 µM
CC(C)CN(C[C@@H](O)[C@H](Cc1ccccc1)NC(=O)O[C@@H]1[C@@H]2CCCO[C@@H]2O[C@H]1C)S(=O)(=O)c1ccc(N)cc1	cytopathic effect / MTT	LAI	MT-2	EC50		0.026 µM
CCCc1cc(=O)oc2c3c(c4c(c12)OC(C)(C)C=C4)O[C@@H](C)[C@H](C)[C@@H]3O	p24	RF	CEM + CEM-SS	EC50		0.24 µM
Nc1ncnc2c1ncn2CC(CF)OCP(=O)(O)O	cytopathic effect / trypan blue	IIIB	MT-4	EC50		23 µM
COc1cc(/C=C/C(=O)CC(=O)/C=C/c2ccc(O)c(OC)c2)ccc1O	cytopathic effect / MTT		MT-4	EC50		>7.4 µM
Cc1cc(S(N)(=O)=O)ccc1NC(=O)COc1ccc(Cl)cc1C(=O)c1cc(F)cc(C(F)(F)F)c1	β-galactosidase	HXB2	HeLa + HeLa-MAGI	EC50	RT-Y181C	0.003 µM